A mixed list of measured activities; the numbers were collected in NIAID ChemDB.

Common to all: whole-cell or culture tests; agent: HIV-1; cells: CEM; read-out: EC50

ECn: concentration that inhibits the pathogen or its effect by n%.

compound | strain or isolate | changes | read by | setting | result
CCOCn1c(Sc2ccccc2)c(CC)c(=O)[nH]c1=S | IIIB | - | syncytia | - | 0.004 µg/mL
N#CCN1C(=O)N(Cc2ccccc2)S(=O)(=O)c2cscc21 | - | RT-Y188H | syncytia | - | ≥60 µM
Nc1ncnc2c1ncn2CCOCP(=O)(O)O | IIIB TIBO R82913 STR-2 (RT K103N) | RT-K103N | syncytia | - | 10 µM
Cc1cn([C@@H]2O[C@H](CO[Si](C)(C)C(C)(C)C)C3(OS(=O)(=O)C=C3N)[C@H]2O[Si](C)(C)C(C)(C)C)c(=O)n(C)c1=O | IIIB | RT-K103N | p24 | - | 0.138 µg/mL
Cc1ccnc2c1NC(=O)c1cccnc1N2C1CC1 | IIIB TIBO R82150-resistant (RT L100I) | RT-L100I | syncytia | - | 0.1 µM
COc1ccc2c(c1)N(C(=O)OC(C)C)[C@@H](CSC)C(=S)N2 | HXB2 (RT E138A S162C E169D T200A L214F) Clinical isolate | RT-E138A S162C E169D T200A L214F | syncytia | - | 0.029 µM
Cc1cn([C@H]2C[C@H](N=[N+]=[N-])[C@@H](CO)O2)c(=O)[nH]c1=O | LAV-Bru | - | RT activity | 15 d | <0.2 µM
N#CCN1C(=O)N(Cc2cccc(F)c2)S(=O)(=O)c2cscc21 | - | RT-L100I | syncytia | - | 2.9 µM
Cc1cn([C@H]2C[C@H](N=[N+]=[N-])[C@@H](CO)O2)c(=O)[nH]c1=O | IIIB | - | syncytia | - | 0.002 µg/mL
Cc1cn([C@@H]2O[C@H](CO[Si](C)(C)C(C)(C)C)C3(OS(=O)(=O)C=C3N)[C@H]2O[Si](C)(C)C(C)(C)C)c(=O)n(C)c1=O | IIIB TIBO R82913 STR-B22 (RT L100I Y188H) | RT-L100I Y188H | syncytia | - | ≥50 µM
CC(C)=CCN1Cc2cc(Cl)cc3[nH]c(=S)n(c23)C[C@@H]1C | IIIB WT | - | syncytia | - | 0.047 µM
CCCCCCCCCCCCCCCCOP(=O)(OC[C@H]1OC(O)[C@H](O)[C@@H](O)[C@@H]1O)OC[C@H]1O[C@@H](n2cc(C)c(=O)[nH]c2=O)C[C@@H]1N=[N+]=[N-] | LAV-Bru | - | RT activity | 22 d | >1 µM
Cc1cn([C@H]2C[C@H](N=[N+]=[N-])[C@@H](CO)O2)c(=O)[nH]c1=O | - | - | p24 | - | 0.0025 µg/mL
CC(C)=CCN1Cc2cc(Cl)cc3[nH]c(=S)n(c23)C[C@@H]1C | IIIB TIBO R82913 STR-2 (RT K103N) | RT-K103N | syncytia | - | ≥5 µM
Cc1cn([C@H]2C[C@H](N=[N+]=[N-])[C@@H](COP(=O)(O)OC[C@H]3OC(O)[C@H](O)[C@@H](O)[C@@H]3O)O2)c(=O)[nH]c1=O | LAV-Bru | - | RT activity | 15 d | <0.2 µM
Nc1nc(=O)n([C@@H]2CO[C@H](CO)S2)cc1F | IIIB | - | p24 | - | 0.2 µM
Cc1cn([C@H]2C[C@H](N=[N+]=[N-])[C@@H](CO)O2)c(=O)[nH]c1=O | IIIB TIBO R82913 STR-B22 (RT L100I Y188H) | RT-L100I Y188H | syncytia | - | 0.045 µM
O=c1[nH]c(=O)n([C@H]2C[C@H](O)[C@@H](CO)O2)cc1C(OCC(F)(F)F)OCC(F)(F)F | - | - | p24 | - | >100 µg/mL
COc1ccc2c(c1)N(C(=O)OC(C)C)[C@@H](CSC)C(=S)N2 | RTMC (RT D67N K70R T215F K219Q) | RT-D67N K70R T215F K219Q | p24 | - | 0.002 µg/mL
Cc1ccnc2c1NC(=O)c1cccnc1N2C1CC1 | IIIB | RT-Y188H | syncytia | - | 0.02 µg/mL
CC(=O)c1ccc(C)cc1NC(C(N)=O)c1c(Cl)cccc1Cl | IIIB | - | cytopathic effect / MTT | - | 0.4 µM
CCn1c(=O)c(C)cn([C@@H]2O[C@H](CO[Si](C)(C)C(C)(C)C)C3(OS(=O)(=O)C=C3N)[C@H]2O[Si](C)(C)C(C)(C)C)c1=O | IIIB | RT-E138K | syncytia | - | >32.4 µM
CCOCn1c(Cc2cc(C)cc(C)c2)c(CC)c(=O)[nH]c1=O | IIIB TIBO R82913 STR-1 (RT L100I Y181C) | RT-L100I Y181C | syncytia | - | 0.8 µM
CCOCn1c(Cc2ccccc2)c(CC)c(=O)[nH]c1=O | IIIB NEV(RT-V106A) | RT-V106A | syncytia | - | 0.12 µg/mL
Cc1cn([C@@H]2O[C@H](CO[Si](C)(C)C(C)(C)C)C3(OS(=O)(=O)C=C3N)[C@H]2O[Si](C)(C)C(C)(C)C)c(=O)n(C)c1=O | IIIB WT | - | cytopathic effect | - | 0.083 µM
CN1C(=O)N(Cc2ccccc2)S(=O)(=O)c2cscc21 | IIIB | - | syncytia | - | 2.3 µM
CCn1c(=O)c(C)cn([C@@H]2O[C@H](CO[Si](C)(C)C(C)(C)C)C3(OS(=O)(=O)C=C3N)[C@H]2O[Si](C)(C)C(C)(C)C)c1=O | IIIB | - | syncytia | - | 0.06 µg/mL
CC[C@H]1C(=O)Nc2ccc(F)cc2N1C(=O)OC(C)C | IIIB WT | - | cytopathic effect | - | 0.0021 µM
CCN1C(=O)N(Cc2ccccc2)S(=O)(=O)c2cscc21 | - | RT-Y188H | syncytia | - | >310.2 µM
CCNc1cccnc1N1CCN(C(=O)c2cc3cc(OC)ccc3[nH]2)CC1 | IIIB BHAP(RT-L100I) | RT-L100I | syncytia | - | 2.5 µg/mL
C[C@H](Cn1cnc2c(N)ncnc21)OCP(=O)(O)O | IIIB | RT-Y188H | syncytia | - | 0.8 µg/mL
Nc1ccn([C@H]2CO[C@@H](CO)S2)c(=O)n1 | IIIB | - | p24 | - | 0.2 µM
CC(C)Nc1cccnc1N1CCN(C(=O)c2cc3cc(NS(C)(=O)=O)ccc3[nH]2)CC1 | NNRTI-resistant | RT-L100I | cytopathic effect | - | 2.88 µM
Nc1nc(=O)n([C@H]2C[C@H](O)[C@@H](CO)O2)cc1COCC(F)(F)F | - | - | p24 | - | >100 µg/mL
Cc1cn([C@@H]2O[C@H](CO[Si](C)(C)C(C)(C)C)C3(OS(=O)(=O)C=C3N)[C@H]2O[Si](C)(C)C(C)(C)C)c(=O)n(C)c1=O | IIIB WT | - | syncytia | - | 0.05 µM
CC(C)=CCN1Cc2cc(Cl)cc3[nH]c(=S)n(c23)C[C@@H]1C | IIIB BHAP(RT-L100I) | RT-L100I | syncytia | - | 0.27 µg/mL
Cc1occc1C(=S)Nc1ccc(Cl)c(/C=N/OC(C)(C)C)c1 | IIIB | RT-V106A | p24 | - | 0.13 µg/mL

3 of the rows above, restated:

{"compound": "Cc1cn([C@H]2C[C@H](N=[N+]=[N-])[C@@H](CO)O2)c(=O)[nH]c1=O", "strain or isolate": "IIIB", "read by": "syncytia", "result": "0.002 µg/mL"}
{"compound": "Nc1ncnc2c1ncn2CCOCP(=O)(O)O", "strain or isolate": "IIIB TIBO R82913 STR-2 (RT K103N)", "changes": "RT-K103N", "read by": "syncytia", "result": "10 µM"}
{"compound": "CCOCn1c(Cc2cc(C)cc(C)c2)c(CC)c(=O)[nH]c1=O", "strain or isolate": "IIIB TIBO R82913 STR-1 (RT L100I Y181C)", "changes": "RT-L100I Y181C", "read by": "syncytia", "result": "0.8 µM"}

Lines come from different laboratories, so protocols vary. An empty or dashed field is not shown.